Measured values from several laboratories, pooled; numbers as filed in NIAID ChemDB.

Shared fields: whole-cell or culture tests; species: Mycobacterium tuberculosis

MIC bound: limit read from a one-dose screen. Percent inhibition refers to the dose given; in toxicity tests it is the harm to the cells. Blank or dashed fields: not listed here. ECn: concentration that inhibits the pathogen or its effect by n%. Neighbouring rows are from separate reports. MIC50, MIC90 and the like: level of inhibition, or share of isolates inhibited.

SMILES	strain	read-out	method	dose	setting	mutations	result
O=C(/C=C/c1ccc(F)cc1Cl)c1ccccc1	H37Rv	MIC	resazurin	-	21 d	-	32 µg/mL
CC1COc2c(N3CCN(C)CC3)c(F)cc3c(=O)c(C(=O)O)cn1c23	12119	MIC80	broth dilution	-	-	Ofloxacin-resistant	>5.6 µM
NC(=O)c1cnccn1	H37Rv	EC50	resazurin	-	-	-	23.62 µg/mL
O=C(O)COc1ccc(-c2cccnc2)c(CN2CCN(c3ccccn3)CC2)c1	H37Rv (ATCC 27294)	MIC	broth dilution	-	-	-	32 µg/mL
Nc1nn2cc3c(nc2c1N=Nc1ccc(Cl)cc1)CCCC3	H37Rv	MIC bound	resazurin	-	-	-	>6.25 µg/mL
Cc1ccc(-c2c(C)cc3oc(=O)cc(C)c3c2C)cc1	H37Rv	EC90	turbidity	-	-	-	>250 µM
Cc1noc(NS(=O)(=O)c2ccc(N=Nc3ccc(N)nc3N)cc2)c1C	H37Rv	MIC	BACTEC	-	-	-	≥12.5 µg/mL
Nc1ccc(Sc2cccc(Cl)c2Cl)c2ncccc12	H37Rv	MIC	-	-	-	-	>200 µg/mL
O=C(/C=C/c1ccccc1)c1ccc(O)cc1	H37Rv	MIC	resazurin	-	7 d	-	32 µg/mL
CCCc1ncc(C(N)=S)nc1Sc1ccccc1	H37Rv	inhibition	-	12.5 µg/mL	-	-	63%
COc1cccc(/C=C/C(=O)c2ccc(F)cc2)c1F	H37Rv	MIC	resazurin	-	21 d	-	32 µg/mL
O=[N+]([O-])c1ccc(S(=O)(=O)c2ccc(O)cc2)c2ncccc12	H37Rv	MIC	-	-	-	-	40 µg/mL
CCCCc1nc(Cl)c(/C=N/NC(N)=S)n1CCCN1CCN(Cc2ccc(Cl)cc2)CC1	H37Rv	MIC	agar	-	-	-	50 µg/mL
Cc1ccc(C2=C/C(=C/c3cc4ccccc4nc3Cl)C(=O)O2)cc1	H37Rv	EC50	resazurin	-	-	-	>100 µg/mL
O=[N+]([O-])c1ccc(S(=O)(=O)c2ccc3ccccc3c2)c2ncccc12	H37Rv	MIC	-	-	-	-	40 µg/mL
Nc1nc(-c2ccc(Cl)cc2)c(N=Nc2ccc(Br)cc2)s1	H37Rv	MIC bound	BACTEC	-	-	-	≤12.5 µg/mL
CCc1c2c(nc3ccc(OCc4cccc(F)c4)cc13)-c1cc3c(c(=O)n1C2)COC(=O)C3(O)CC	H37Rv	MIC	resazurin	-	-	-	24.97 µM
C/C=C(\C)C(=O)OC1C(C)=C2C(C1OC(=O)CCCC)C(C)(OC(C)=O)CC(OC(=O)CCCC)C1(O)C2OC(=O)C1(C)O	H37Rv	inhibition	BACTEC	12.5 µg/mL	-	-	8%
CC(=O)/C(N=Nc1ccc(C(=O)N/N=C/c2ccc([N+](=O)[O-])o2)cc1)=C(/O)c1ccccc1	H37Rv	EC50	-	-	-	-	<12.5 µg/mL
Nc1sc2c(c1C(=O)NCc1ccccc1)CCCC2	H37Rv	MIC	resazurin	-	-	-	>300 µM
C=C(C)/C=C/[C@]12C[C@H](C)[C@H]3CC[C@](C)(NC)[C@@H](CC[C@H]1C)[C@@H]32	H37Rv	inhibition	-	64 µg/mL	-	-	100%
CC(NC(=O)c1ccccc1Cl)c1nnc(SCc2ccc(F)cc2)n1Cc1cccnc1	H37Rv (ATCC 27294)	MIC	broth dilution	-	7 d	-	>64 µg/mL
CCCCSc1nc(C(N)=S)cnc1CC(C)C	H37Rv	inhibition	-	12.5 µg/mL	-	-	<90%
COc1ccc(C(=O)/C=C/c2ccccc2Cl)cc1	H37Rv	MIC	MTT	-	14 d	-	32 µg/mL
COc1cc(C)c2c(=O)c3c(oc2c1)C(=O)c1c(O)c(OC)cc(O)c1C3=O	CS-R	MIC	-	-	-	-	12.5 µg/mL
CCc1c2c(nc3ccc(OCc4cccc(OC)c4)cc13)-c1cc3c(c(=O)n1C2)COC(=O)C3(O)CC	H37Rv	MIC	resazurin	-	-	-	12.2 µM
COc1ccccc1-c1cn2cc(Cl)sc2n1	H37Rv	MIC	-	-	-	-	>6.25 µg/mL
CCCSc1nc(C(N)=S)cnc1CCC	H37Rv	MIC	-	-	-	-	>12.5 µg/mL
CC1=CC2=C(C=O)C(=O)[C@@](C)(O)[C@H](O)C2=CO1	H37Rv	inhibition	BACTEC	12.8 µg/mL	-	-	4%
CC1CN(c2c(F)cc3c(=O)c(C(=O)O)cn(C4CC4)c3c2F)CC(C)N1	CSU23	MIC	-	-	-	-	≤0.125 µg/mL
COc1nc(=O)n([C@H]2C=CC(=O)O2)cc1F	H37Rv	inhibition	BACTEC	12.5 µg/mL	-	-	36%
CCCCc1nc(Cl)c(/C=N/NC(N)=S)n1CCCN1CCN(CCc2ccccc2)CC1	H37Rv	MIC	agar	-	-	-	6.25 µg/mL
COc1cccc2c1C(=O)c1c(O)c3c(c(O)c1C2=O)C[C@@](O)(/C(C)=N/NC(N)=O)CC3OC1CC(N)C(O)C(C)O1.Cl	H37Rv	inhibition	BACTEC	12.5 µg/mL	-	-	99%
CCc1c2c(nc3ccc(OCc4ccc(F)c(F)c4F)cc13)-c1cc3c(c(=O)n1C2)COC(=O)C3(O)CC	XDR	MIC	resazurin	-	-	Extensively drug-resistant	23.31 µM
O=C(/C=C/c1ccc(F)cc1)c1ccc(F)cc1	H37Rv	MIC	resazurin	-	7 d	-	32 µg/mL
O=C(O)C(=NNc1ccc(C(=O)N/N=C/c2ccc([N+](=O)[O-])o2)cc1)C(=O)O	H37Rv	MIC	-	-	-	-	>6.25 µg/mL
Cc1ccc(C(=O)/C=C/c2ccccc2)cc1	H37Rv	MIC	MTT	-	14 d	-	32 µg/mL
Nc1sc2c(c1C(=O)O)CCCC2	H37Rv	MIC	resazurin	-	-	-	507 µM
CNC(=O)COc1ccc(-c2ccc(C#N)cc2)c(CN2CCN(c3ccccn3)CC2)c1	H37Rv (ATCC 27294)	MIC	broth dilution	-	-	-	64 µg/mL
CSc1nc(C(N)=S)cnc1C(C)(C)C	H37Rv	inhibition	-	12.5 µg/mL	-	-	72%
COc1ccc2cc(CN(C(=O)Nc3ccc(F)cc3)C3CC3)c(=O)[nH]c2c1	H37Rv (ATCC 27294)	MIC	broth dilution	-	-	-	>64 µg/mL
NNC(=O)c1ccncc1	CSU22	MIC	-	-	-	-	>8 µg/mL
Cc1cc2oc(=O)cc(-c3ccccc3)c2c(C)c1-c1ccc(CN2CCOCC2)cc1	H37Rv	EC99	turbidity	-	-	-	0.42 µM
CCCCc1nc(Cl)c(/C=N/NC(N)=S)n1CCCN1CCN(c2ccccc2F)CC1	H37Rv	MIC	agar	-	-	-	25 µg/mL
CCCCc1ncc(C(N)=S)nc1SCC	H37Rv	inhibition	-	12.5 µg/mL	-	-	77%
CCOC(=O)c1c(NC(=O)c2c(F)c(F)c(F)c(F)c2F)sc2c1CCN(CC)C2	H37Rv	MIC	low oxygen	-	-	-	>200 µM
O=C1OC(c2ccccc2)=C/C1=C/c1cc2ccccc2nc1Cl	H37Rv	EC50	resazurin	-	-	-	58.29 µg/mL
O=C(/C=C/c1ccccc1)c1ccc(F)cc1	H37Rv	MIC	MTT	-	-	-	32 µg/mL
Nc1ccc(Sc2cc(Cl)ccc2Cl)c2ncccc12	H37Rv	MIC	-	-	-	-	40 µg/mL
O=[N+]([O-])c1ccc(-c2cn3cc(Cl)sc3n2)cc1	H37Rv	inhibition	-	6.25 µg/mL	-	-	24%
N#Cc1ncc(C(Cl)(Cl)Cl)nc1Cl	ETA-R	MIC	-	-	-	-	6.3 µg/mL
O=c1cc(-c2ccccc2)c2cc(-c3ccncc3)ccc2o1	H37Rv	EC90	turbidity	-	-	-	>250 µM
COc1ccc(-c2ccc(OCC(=O)O)cc2CN2CCN(c3ccccn3)CC2)cc1	H37Rv (ATCC 27294)	MIC	broth dilution	-	-	-	32 µg/mL
COc1ccc(-n2[nH]c(C)c(N=Nc3ccc(-c4n[nH]c(=S)o4)cc3)c2=O)cc1	H37Rv	MIC	-	-	-	-	>6.25 µg/mL
CCCSc1nc(C(N)=O)cnc1CC(C)C	H37Rv	MIC	-	-	-	-	>12.5 µg/mL
O=[N+]([O-])c1ccccc1S(=O)(=O)c1ccc([N+](=O)[O-])c2cccnc12	H37Rv	MIC	-	-	-	-	100 µg/mL
CCOC(=O)/C(N=Nc1ccc(C(=O)N/N=C/c2ccc([N+](=O)[O-])o2)cc1)=C(\C)O	H37Rv	inhibition	-	12.5 µg/mL	-	-	95%
Cc1ccccc1S(=O)(=O)c1ccc([N+](=O)[O-])c2cccnc12	H37Rv	MIC	-	-	-	-	100 µg/mL
Cc1ccc(NC=O)cc1Cl	H37Rv	MIC bound	BACTEC	-	-	-	>12.5 µg/mL
O=C(O)COc1ccc(-c2ccc(C(F)(F)F)cc2)c(CN2CCN(c3ccccn3)CC2)c1	H37Rv (ATCC 27294)	MIC	broth dilution	-	-	-	32 µg/mL
S=C(SSC(=S)N1CCOCC1)N1CCOCC1	H37Rv	MIC	BACTEC	-	-	-	16 µg/mL
CCc1c2c(nc3ccc(OCc4ccccc4C(F)(F)F)cc13)-c1cc3c(c(=O)n1C2)COC(=O)C3(O)CC	H37Rv	MIC	resazurin	-	-	-	11.32 µM
COc1ccc(-c2cn3ccsc3n2)cc1	H37Rv	MIC	-	-	-	-	>6.25 µg/mL
Cc1cc2oc(=O)cc(-c3ccccc3)c2c(C)c1-c1ccc(CO)cc1	H37Rv	EC99	turbidity	-	-	-	2.6 µM
CCCCSc1nc(C(N)=O)cnc1C(C)(C)C	H37Rv	inhibition	-	12.5 µg/mL	-	-	<90%
NC(=O)C1=C(C(N)=O)SC(C(N)=O)=C(C(N)=O)S1	H37Rv	MIC bound	BACTEC	-	-	-	>6.25 µg/mL
Nc1ccc(Sc2ccc(Cl)cc2Cl)c2ncccc12	H37Rv	MIC	-	-	-	-	0.02 µg/mL
Cc1cc(S(=O)(=O)Nc2nc(N)n(-c3ccccn3)n2)c(S)cc1Cl	H37Rv	inhibition	BACTEC	12.5 µg/mL	-	-	0%
C[C@@H]1CN(c2c(F)c(N)c3c(=O)c(C(=O)O)cn(C4CC4)c3c2F)C[C@H](C)N1	CSU20	MIC	-	-	-	-	≤0.125 µg/mL
O=[N+]([O-])c1ccc(S(=O)(=O)c2nc3ccccc3o2)c2ncccc12	H37Rv	MIC	-	-	-	-	40 µg/mL
O=C1C(n2ccc(=O)[nH]c2=O)CCN1CCCl	H37Rv	inhibition	BACTEC	12.8 µg/mL	-	-	6%
CCOC(=O)/C(N=Nc1ccc(-c2n[nH]c(=S)n2C)cc1)=C(\C)O	H37Rv	MIC	-	-	-	-	>6.25 µg/mL
Clc1cn2cc(-c3ccc(Cl)c(Cl)c3Cl)nc2s1	H37Rv	MIC	-	-	-	-	>6.25 µg/mL
COc1ccc(C2=C/C(=C3/C(=O)Oc4ccccc4C3=O)SS2)cc1	H37Rv	MIC	BACTEC	-	-	-	≥12.5 µg/mL
CC1CN(c2c(F)cc3c(=O)c(C(=O)O)cn(C4CC4)c3c2F)CCN1	CSU20	MIC	-	-	-	-	≤0.125 µg/mL
O=C1CCC23CC(C=CC=C12)n1c(=O)n(-c2ccccc2)c(=O)n13	H37Rv	inhibition	resazurin	6.25 µg/mL	-	-	-1%
CCCCc1ncc(C(N)=O)nc1SCC	H37Rv	MIC	-	-	-	-	>12.5 µg/mL
CCCCCNc1ccc(NCCCCC)c2c1C(=O)c1ccccc1C2=O	H37Rv	inhibition	BACTEC	12.5 µg/mL	-	-	-13%
CCCCc1nc(Cl)c(/C=N/NC(N)=S)n1CCCN1CCN(C/C=C/c2ccccc2)CC1	H37Rv	MIC	agar	-	-	-	6.25 µg/mL
CC(O)C(O)C(N)CC=O	H37Rv	inhibition	BACTEC	12.5 µg/mL	-	-	6%
NNC(=O)c1ccncc1	-	MIC80	broth dilution	-	-	-	0.02 µM
O=C(/C=C/c1ccccc1)c1ccccc1	H37Rv	MIC	MTT	-	7 d	-	32 µg/mL
N#Cc1cccc(-c2ccc(OCC(=O)O)cc2CN2CCN(c3ccccn3)CC2)c1	H37Rv (ATCC 27294)	MIC	broth dilution	-	-	-	32 µg/mL
Nc1ccc(-c2cn3cc(Cl)sc3n2)cc1	H37Rv	MIC	-	-	-	-	>6.25 µg/mL
CCc1ccc(C2=C/C(=C/c3cc4cc(OC)ccc4nc3Cl)C(=O)O2)cc1	H37Rv	EC50	resazurin	-	-	-	>100 µg/mL
Nc1nc(NCc2ccco2)cc(=O)[nH]1	H37Rv	MIC bound	BACTEC	-	-	-	>12.5 µg/mL
COc1nc2ccc(Br)cc2cc1[C@@H](c1ccccc1)[C@@](O)(CCN(C)C)c1cccc2ccccc12	ATCC 27294	MIC80	broth dilution	-	-	-	0.2 µM
CCCCSc1nc(C(N)=S)cnc1CCCC	H37Rv	MIC	-	-	-	-	>12.5 µg/mL
Cn1c2nc(=O)n(-c3ccccc3)c(=O)c-2nc2c1CCCC2	H37Rv	inhibition	BACTEC	12.5 µg/mL	-	-	17%
O=[N+]([O-])c1ccc(S(=O)(=O)c2c(Cl)cccc2Cl)c2ncccc12	H37Rv	MIC	-	-	-	-	>200 µg/mL

The first 6 rows once more:

| SMILES | strain | read-out | method | dose | setting | mutations | result |
|---|---|---|---|---|---|---|---|
| O=C(/C=C/c1ccc(F)cc1Cl)c1ccccc1 | H37Rv | MIC | resazurin | - | 21 d | - | 32 µg/mL |
| CC1COc2c(N3CCN(C)CC3)c(F)cc3c(=O)c(C(=O)O)cn1c23 | 12119 | MIC80 | broth dilution | - | - | Ofloxacin-resistant | >5.6 µM |
| NC(=O)c1cnccn1 | H37Rv | EC50 | resazurin | - | - | - | 23.62 µg/mL |
| O=C(O)COc1ccc(-c2cccnc2)c(CN2CCN(c3ccccn3)CC2)c1 | H37Rv (ATCC 27294) | MIC | broth dilution | - | - | - | 32 µg/mL |
| Nc1nn2cc3c(nc2c1N=Nc1ccc(Cl)cc1)CCCC3 | H37Rv | MIC bound | resazurin | - | - | - | >6.25 µg/mL |
| Cc1ccc(-c2c(C)cc3oc(=O)cc(C)c3c2C)cc1 | H37Rv | EC90 | turbidity | - | - | - | >250 µM |